Laboratory results: patent publication US20230045284

What was measured:
[1] = target: T1, GST-Rit2, Q99578
T1 chain: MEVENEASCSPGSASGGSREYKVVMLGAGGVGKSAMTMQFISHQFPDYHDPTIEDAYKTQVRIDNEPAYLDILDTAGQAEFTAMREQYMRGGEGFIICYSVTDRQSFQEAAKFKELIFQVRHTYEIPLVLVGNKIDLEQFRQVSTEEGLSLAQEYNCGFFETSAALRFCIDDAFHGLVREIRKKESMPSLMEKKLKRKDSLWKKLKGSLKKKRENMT

[2] = target: GST-Rab11A, P62491
[3] = target: T2, GST-Rap1A, P62834
T2 chain: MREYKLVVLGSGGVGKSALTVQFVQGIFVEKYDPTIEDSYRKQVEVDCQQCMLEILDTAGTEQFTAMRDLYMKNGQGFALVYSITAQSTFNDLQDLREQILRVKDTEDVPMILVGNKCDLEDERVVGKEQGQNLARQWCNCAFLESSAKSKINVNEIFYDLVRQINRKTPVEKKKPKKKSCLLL

[4] = target: T3, GST-RheB2, Q8TAI7
T3 chain: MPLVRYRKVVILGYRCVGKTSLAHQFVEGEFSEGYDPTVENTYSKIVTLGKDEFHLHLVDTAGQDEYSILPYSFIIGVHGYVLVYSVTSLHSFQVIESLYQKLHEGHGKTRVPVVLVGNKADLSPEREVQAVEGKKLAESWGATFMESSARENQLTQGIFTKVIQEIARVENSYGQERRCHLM

[5] = target: GST-RhoG, P84095
[6] = target: Recombinant 6xHis-tagged NRas (rNRas; NP_002515.1), P01111
[7] = target: T4, GST-Rab4A, P20338
T4 chain: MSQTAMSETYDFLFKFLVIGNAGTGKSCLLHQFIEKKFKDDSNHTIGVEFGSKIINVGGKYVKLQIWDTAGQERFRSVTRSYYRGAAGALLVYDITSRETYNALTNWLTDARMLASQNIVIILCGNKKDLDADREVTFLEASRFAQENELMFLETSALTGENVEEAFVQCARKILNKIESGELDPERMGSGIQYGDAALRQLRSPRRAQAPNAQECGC

[8] = target: GST-RhoC, P08134
[9] = target: T5, GST-Rab4B, P61018
T5 chain: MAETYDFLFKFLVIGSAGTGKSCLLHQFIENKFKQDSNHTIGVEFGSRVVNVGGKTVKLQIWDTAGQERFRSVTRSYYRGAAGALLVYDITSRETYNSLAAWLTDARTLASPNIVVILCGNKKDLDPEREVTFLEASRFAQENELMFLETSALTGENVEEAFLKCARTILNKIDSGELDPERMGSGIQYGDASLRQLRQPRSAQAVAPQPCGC

[10] = target: GST-Ran, P62826
[11] = target: T6, GST-Rab5A, P20339
T6 chain: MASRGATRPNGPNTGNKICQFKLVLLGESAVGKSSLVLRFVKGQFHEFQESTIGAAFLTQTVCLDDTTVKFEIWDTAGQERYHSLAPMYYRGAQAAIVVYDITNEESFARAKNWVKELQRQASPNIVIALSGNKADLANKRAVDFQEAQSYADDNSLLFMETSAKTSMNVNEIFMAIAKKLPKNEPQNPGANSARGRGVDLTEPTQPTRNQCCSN

[12] = target: GST-HRas (rGST-HRas), P01112
[13] = target: GST-RhoB, P62745
[14] = target: Recombinant 6xHis-tagged HRas (rHRas; NP_001123914.1), P01112
[15] = target: GST-Rac1, P63000

B1: Recombinant 6xHis-tagged DUF5Vv (rDUF5Vv; V. vulnificus CMCP6 MARTXVv Q3596-L4089) (protein)
chain: QELKERAKVFAKPIGASYQGILDQLDLVHQAKGRDQIAASFELNKKINDYIAEHPTSGRNQALTQLKEQVTSALFIGKMQVAQAGIDAIAQTRPELAARIFMVAIEEANGKHVGLTDMMVRWANEDPYLAPKHGYKGETPSDLGFDAKYHVDLGEHYADFKQWLETSQSNGLLSKATLDESTKTVHLGYSYQELQDLTGAESVQMAFYFLKEAAKKADPISGDSAEMILLKKFADQSYLSQLDSDRMDQIEGIYRSSHETDIDAWDRRYSGTGYDELTNKLASATGVDEQLAVLLDDRKGLLIGEVHGSDVNGLRFVNEQMDALKKQGVTVIGLEHLRSDLAQPLIDRYLATGVMSSELSAMLKTKHLDVTLFENARANGMRIVALDANSSARPNVQGTEHGLMYRAGAANNIAVEVLQNLPDGEKFVAIYGKAHLQSHKGIEGFVPGITHRLDLPALKVSDSNQFTVEQDDVSLRVVYDDVANKPKITFKGSL
- in vitro cleavage of rGST-GTPase, SDS-PAGE [1]: None of the other GTPase was cleaved by DUF5Vv
- in vitro cleavage of rGST-GTPase, SDS-PAGE [2]: None of the other GTPase was cleaved by DUF5Vv
- in-vitro cleavage of GST-fusion GTPases [3]: only Rap1 was confirmed as a DUF5Vv substrate, with cleavage occurring after Y32
- in vitro cleavage of rGST-GTPase, SDS-PAGE [4]: None of the other GTPase was cleaved by DUF5Vv
- in vitro cleavage of rGST-GTPase, SDS-PAGE [5]: None of the other GTPase was cleaved by DUF5Vv
- in-vitro cleavage reaction of purified proteins [6]: rHRas and rNRas were likewise efficiently processed by purified rDUF5Vv
- in vitro cleavage of rGST-GTPase, SDS-PAGE [7]: None of the other GTPase was cleaved by DUF5Vv
- in vitro cleavage of rGST-GTPase, SDS-PAGE [8]: None of the other GTPase was cleaved by DUF5Vv
- in vitro cleavage of rGST-GTPase, SDS-PAGE [9]: None of the other GTPase was cleaved by DUF5Vv
- in vitro cleavage of rGST-GTPase, SDS-PAGE [10]: None of the other GTPase was cleaved by DUF5Vv
- in vitro cleavage of rGST-GTPase, SDS-PAGE [11]: None of the other GTPase was cleaved by DUF5Vv
- in vitro processing of 10 µM GST-GTPase by 10 µM rDUF5Vv for 10 min [12]: Only the positive samples, HRas and Rap1A, are duplicated in FIG. 26F
- in vitro cleavage of rGST-GTPase, SDS-PAGE [13]: None of the other GTPase was cleaved by DUF5Vv
- in-vitro cleavage reaction of purified proteins [14]: rHRas and rNRas were likewise efficiently processed by purified rDUF5Vv
- in vitro cleavage of rGST-GTPase, SDS-PAGE [15]: None of the other GTPase was cleaved by DUF5Vv
